Test results published in PubChem BioAssay AID449762 (Southern Research Specialized Biocontainment Screening …, 2010).
Inconclusive results are not listed.

Tested on: M. tuberculosis H37Rv growth inhibition, 7H9 media
Experiment: M. tuberculosis growth inhibition, HTS (AID 449762);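 also: bacterial growth assessed after seven days of incubation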
Details: measured here: IC90 growth inhibition

Compound O=[N+]([O-])c1cc([N+](=O)[O-])c(-c2cnn(-c3ccccc3)c2)c([N+](=O)[O-])c1 has an IC90 of 12.8 µM.
